For data set [1], the system named is WI38 human non-cancer fibroblast cell line. As to the kind of experiment: Cytotoxicity assay (MTT) on WI38. The format is cell-based. The note with it: pure compounds; SI = IC50 on mammalian cells/IC50 on protozoan parasites. The protocol: (§1) The human non-cancer fibroblast cell line WI38 (ATCC Number CCL-75 – Standards, UK) and macrophage-like murine cell line J774 (ECACC Number 91051511 – Public Health England, UK) were grown in DMEM and RPMI medium (Gibco-Thermo Fisher Scientific, Merelbeke, Belgium or Sigma-Aldrich, Bornem, Belgium), respectively, supplemented with 10% fetal bovine serum and penicillin-streptomycin (100 UI/mL) (Sigma-Aldrich, Bornem, Belgium).
(§2) The cytotoxicity assays were performed as described previously with concentrations ranging from 50 to 1.40 nL/mL (dilution of 1.67). The selectivity index (SI) values were calculated using the formula:SI = IC50 on mammalian cells/IC50 on protozoan parasites

The test system of data set [2] is J774 macrophage-like murine cell line. As to the kind of experiment: Cytotoxicity assay (MTT) on J774. The note with it: pure compounds; SI = IC50 on mammalian cells/IC50 on protozoan parasites. Type of data set: cell-based. The protocol: as §1, §2

We go through 4 compounds from paper PMC6471621, “Evaluation of the Anti-Trypanosomal Activity of Vietnamese Essential Oils, with Emphasis on Curcuma longa L. and Its Components” (Molecules, 2019).

For the compound `C=C1C=CC(C(C)CC(=O)C=C(C)C)CC1` (centres unmarked) [Curlone], the “SI (WI38)” value in data set [1] amounted to 31.7. The “SI (J774)” value in data set [2] is given as 18.2.
The like results for `CC(C)=CC(=O)CC(C)c1ccc(C)cc1` (centres unmarked) [ar-Turmerone] were, in that order, 1.5 and 1.6.
Take `CC(C)=CCCC(C)c1ccc(C)cc1` (centres unmarked) [ar-Curcumene]: the “SI (WI38)” value in data set [1] worked out at 1.7. The “SI (J774)” value in data set [2] was 1.8.
For the compound `C=C1C=CC(C(C)CCC=C(C)C)CC1` (stereo not drawn) [β-Sesquiphellandrene], the “SI (WI38)” value in data set [1] is 1.9. Besides, the “SI (J774)” value in data set [2] came to 2.1.
